# Substitutions are numbered along the chain they refer to.
# B1: α-bungarotoxin conjugated to Alexa Fluor 647 (ligand)
# chain: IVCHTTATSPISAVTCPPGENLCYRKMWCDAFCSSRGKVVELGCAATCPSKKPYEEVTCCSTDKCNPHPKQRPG
# What was measured:
# [1] = target: T1, CODA952 (Y140I in SEQ ID NO: 33) (human (chimera of human α7-nAChR and …))
# T1 chain: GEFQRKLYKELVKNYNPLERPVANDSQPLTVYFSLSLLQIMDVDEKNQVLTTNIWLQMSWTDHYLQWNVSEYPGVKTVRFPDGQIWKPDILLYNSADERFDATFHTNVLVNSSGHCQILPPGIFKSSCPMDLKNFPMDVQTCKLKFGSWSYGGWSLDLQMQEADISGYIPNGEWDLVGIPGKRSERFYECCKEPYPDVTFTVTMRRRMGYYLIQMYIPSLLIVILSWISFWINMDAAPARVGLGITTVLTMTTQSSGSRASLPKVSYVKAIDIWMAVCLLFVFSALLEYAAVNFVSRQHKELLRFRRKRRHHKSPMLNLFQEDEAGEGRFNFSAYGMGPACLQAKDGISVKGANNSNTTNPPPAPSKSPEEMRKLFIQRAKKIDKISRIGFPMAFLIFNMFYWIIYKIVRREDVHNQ
# [2] = target: T2, CODA805 (Y115D, S170T in SEQ ID NO: 33) (human (chimera of human α7-nAChR and …))
# T2 chain: T1 chain with Y93D, I118Y, S148T
# [3] = target: T3, CODA807 (Y115D, L131E in SEQ ID NO: 33) (human (chimera of human α7-nAChR and …))
# T3 chain: T1 chain with Y93D, L109E, I118Y
# [4] = target: T4, CODA534 (L131S, S172D in SEQ ID NO: 33) (human (chimera of human α7-nAChR and …))
# T4 chain: T1 chain with L109S, I118Y, S150D
# [5] = target: T5, CODA1047 (R101F, Y210V in SEQ ID NO: 33) (human (chimera of human α7-nAChR and …))
# T5 chain: T1 chain with R79F, I118Y, Y188V
# [6] = target: T6, CODA339 (L131D in SEQ ID NO: 33) (human (chimera of human α7-nAChR and …))
# T6 chain: T1 chain with L109D, I118Y
binder,measurement,setting,value
B1,Normalized AB %,[1],0.54 ratio to SEQ ID NO: 33 control
same,Normalized AB MFI,[1],2.64 ratio to SEQ ID NO: 33 control
same,Normalized AB %,[2],0.56 ratio to SEQ ID NO: 33 control
same,Normalized AB %,CODA1073,0.44 ratio to SEQ ID NO: 33 control
same,Normalized AB %,[3],0.78 ratio to SEQ ID NO: 33 control
same,Normalized AB MFI,[4],0.91 ratio to SEQ ID NO: 33 control
same,Normalized AB %,[5],0.03 ratio to SEQ ID NO: 33 control
same,Normalized AB MFI,[5],0.38 ratio to SEQ ID NO: 33 control
same,Normalized AB %,[6],0.84 ratio to SEQ ID NO: 33 control

# From patent US20240317834A1, “COMPOSITIONS AND METHODS FOR NEUROLOGICAL DISEASES” (CODA BIOTHERAPEUTICS, published 2024)
